We go through six sequences from article PMC7927077, “Glucose-Binding of Periplasmic Protein GltB Activates GtrS-GltR Two-Component System in Pseudomonas aeruginosa” (Microorganisms, 2021).

The target in data set [1] is T1, 6His-GltR (Pseudomonas aeruginosa PAO1) (UniProt G3XCY6).
T1 sequence (looked up): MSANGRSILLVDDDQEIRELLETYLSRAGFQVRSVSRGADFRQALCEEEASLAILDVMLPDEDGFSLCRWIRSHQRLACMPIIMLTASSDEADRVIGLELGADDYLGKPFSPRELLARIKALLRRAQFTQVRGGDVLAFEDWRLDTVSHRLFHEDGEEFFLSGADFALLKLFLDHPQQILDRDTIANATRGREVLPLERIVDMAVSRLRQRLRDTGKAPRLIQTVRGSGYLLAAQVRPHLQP
Briefly: EMSA. Particulars: 10 mM Tris-Cl pH 7.8, 1 mM DTT, 10% glycerol, 5 mM MgCl2, 10 mM KCl, 37 C 30 min (EMSA: 40 ng probe, +/- 50 mM acetyl phosphate, 15 uL, 6% gel in 0.5x TBE at 4 C), recombinant protein, residues 1-242, protein details: N-terminal 6His (pET28a), label: none (GelRed stain), probe letters rebuilt from the primers and the genome.

Data set [2] has as its target T1, 6His-GltR (Pseudomonas aeruginosa PAO1). Briefly: DNase I footprinting. Particulars: 50 mM acetyl phosphate; footprint: 300 ng DNA, 50 mM acetyl phosphate, 50 uL); recombinant protein; residues 1-242; protein details: N-terminal 6His (pET28a); label: 6-FAM on forward primer; probe letters rebuilt from the primers and the genome.
[3] abbreviates: 50 mM acetyl phosphate (stronger affinity).

Protein sequences can lack the tags named with them. For part of these data: Construct, isoform or probe ends are uncertain for at least one entry. For part of these data: A weaker result is weaker than the reference pair of the same experiment. For part of these data: At least one verdict rests on a figure or table, not on a statement of the authors.

As to “TTGCAGCATGGAACGCCTCGATGGATTGCCAGGTTGGACCGGCACGCAGGCTGCGACGAGGCAGCCGAGGACGTCCCTGTGGCCCGGCGAGGCGGGCATGGCGCGTGTTCCGGCTCGCAGAGTATCGACAGCGGATCTGACAACTTGAGGACGACGCAGGGGCCGGGCCAGAGCCGACGAAGGGAAATAGCTGGCATGGATGTTCTGCGGGGCTTCGGTTAATCTCTGTGACGAATGTCACATTGTGCCAGTCGAAGGATCTGACTCATGGATGTCCCTCCCACCGTTCAGGATGAACAGGCCGTTTCCCGCCAGTTGCACTCGTTGA (double strand) [ctpH-p]”, the binding result in data set [1] (setting [3]) is on record as “binds”; in data set [1] (no acetyl phosphate), “binds more weakly”.

Take “CAACGACGGGCCGGTGACCTTCCTGCTGGAGAGTTGATCGGCGTCGAGGGGATTTTCCCCAAGGTGCTTCAGGGAGGGATGGCGGGGCCGGAACGGTGAATTTTTGTGACAGATACATGGCCTTTTGTCACAACCTCGGTGCATCATCCGCACGCCGATTTCATGCTGTACAGGACAGGCCGGCCGGCATCCCGATGCCGGGCGGGGCGTCCTGCAACCCAATGGACGGGAATCATTCCGCCCGGGCAGGGTCGGAACCTCTGGGGTCGCTAGCCGACGAGCGGCATGCCCCCTGGTCTTCCAGGCCCGGTGCACGTAACGCGAATGACTGGAAACAGGCATTCTTTTTGTCAGATCGCGCCAAATCTGGCTATCTATCGGGTTTGGCAGCGAATGTGGCGAAACCATGTTCGACCGGCACTCCGGTGCCGTCGGAGACCCCTGAACGGTCAGGGCGTCTTCAGTAATTCATGTTCACGGACGAGGGGGCCTCGTGATTTTCCGTTCCGTTTC (double strand) [opgG-p]”: the binding result in data set [1] (setting [3]) is “binds”; in data set [1] (no acetyl phosphate) it was “binds more weakly”. With “GGTCCAGGGTACTGCGTTTCTGGAACGACAAGGTGCTGCCGCGCAGGGAGGTGCTGCTGGAGGTCATTCTCGTGTTGTAGGAGGTTTCTGTCGCGAAACCGCCTTGCCGAGTTCAAGTCCAGATTTTCCTGCTCTGCCTCAATCCCAATGTAACCGCTCCGTGACAAACCCGGATCGCTTCGTTACCCGCGACGCGGAACGCTTGAATAGACTCGGAGCATTGCAAGCGCAGACTTGCTCCGAATAACAAGAAGAAGGTTTTCCTCATGAATGCGATCCGTCGCCTCTCTGCCGTCATCTGT (double strand) [gltB-p FAM]”, in data set [2], the binding result is listed as “binds”. For “GGTCCAGGGTACTGCGTTTCTGGAACGACAAGGTGCTGCCGCGCAGGGAGGTGCTGCTGGAGGTCATTCTCGTGTTGTAGGAGGTTTCTGTCGCGAAACCGCCTTGCCGAGTTCAAGTCCAGATTTTCCTGCTCTGCCTCAATCCCAATGTAACCGCTCCGTGACAAACCCGGATCGCTTCGTTACCCGCGACGCGGAACGCTTGAATAGACTCGGAGCATTGCAAGCGCAGACTTGCTCCGAATAACAAGAAGAAGGTTTTCCTCATGAATGCGATCCGTCGCCTCTCTGCCGTCATCTGT (double strand) [gltB-p]”, the figures for the binding result in data set [1] (50 mM acetyl phosphate (binding increased)) and in data set [1] (no acetyl phosphate) were “binds” and “binds more weakly”, respectively. For “TTGCAGCATGGAACGCCTCGATGGATTGCCAGGTTGGACCGGCACGCAGGCTGCGACGAGGCAGCCGAGGACGTCCCTGTGGCCCGGCGAGGCGGGCATGGCGCGTGTTCCGGCTCGCAGAGTATCGACAGCGGATCTGACAACTTGAGGACGACGCAGGGGCCGGGCCAGAGCCGACGAAGGGAAATAGCTGGCATGGATGTTCTGCGGGGCTTCGGTTAATCTCTGTGACGAATGTCACATTGTGCCAGTCGAAGGATCTGACTCATGGATGTCCCTCCCACCGTTCAGGATGAACAGGCCGTTTCCCGCCAGTTGCACTCGTTGA (double strand) [ctpH-p FAM]”, the binding result in data set [2] is reported as “binds”. In the case of “CAACGACGGGCCGGTGACCTTCCTGCTGGAGAGTTGATCGGCGTCGAGGGGATTTTCCCCAAGGTGCTTCAGGGAGGGATGGCGGGGCCGGAACGGTGAATTTTTGTGACAGATACATGGCCTTTTGTCACAACCTCGGTGCATCATCCGCACGCCGATTTCATGCTGTACAGGACAGGCCGGCCGGCATCCCGATGCCGGGCGGGGCGTCCTGCAACCCAATGGACGGGAATCATTCCGCCCGGGCAGGGTCGGAACCTCTGGGGTCGCTAGCCGACGAGCGGCATGCCCCCTGGTCTTCCAGGCCCGGTGCACGTAACGCGAATGACTGGAAACAGGCATTCTTTTTGTCAGATCGCGCCAAATCTGGCTATCTATCGGGTTTGGCAGCGAATGTGGCGAAACCATGTTCGACCGGCACTCCGGTGCCGTCGGAGACCCCTGAACGGTCAGGGCGTCTTCAGTAATTCATGTTCACGGACGAGGGGGCCTCGTGATTTTCCGTTCCGTTTC (double strand) [opgG-p FAM]”, the binding result in data set [2] is reported as “binds”.
